pIC50: −log10 of the molar value.
Assays:
Beta-lactamase = Beta-lactamase (Enterobacter cloacae, UniProt P05364); assay: Compound was tested for inhibition of Beta-lactamase from Enterobacter cloacae 908R
[1] = biological target: Penicillin-binding protein 2 (Staphylococcus aureus, UniProt Q53729); assay: Compound was tested for inhibition of 604 (Cephalosporin resistant mutants of Penicillin-binding protein 2) from Streptococcus pneumoniae

Protein sequences, listed by entry. Tags and fused reporters are not part of them. Residues count along the entry.
UniProt P05364, whole entry: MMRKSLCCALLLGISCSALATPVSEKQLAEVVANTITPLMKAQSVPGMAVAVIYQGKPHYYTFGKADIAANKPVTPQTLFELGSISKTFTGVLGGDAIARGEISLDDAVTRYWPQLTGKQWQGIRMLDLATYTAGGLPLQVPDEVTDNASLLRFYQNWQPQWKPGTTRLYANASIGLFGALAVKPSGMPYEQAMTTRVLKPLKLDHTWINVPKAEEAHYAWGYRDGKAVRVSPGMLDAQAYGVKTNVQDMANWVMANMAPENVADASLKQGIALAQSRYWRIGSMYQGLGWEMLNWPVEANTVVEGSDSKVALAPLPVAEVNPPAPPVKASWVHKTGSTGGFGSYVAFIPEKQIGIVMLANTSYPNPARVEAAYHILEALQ
UniProt Q53729, 1-716: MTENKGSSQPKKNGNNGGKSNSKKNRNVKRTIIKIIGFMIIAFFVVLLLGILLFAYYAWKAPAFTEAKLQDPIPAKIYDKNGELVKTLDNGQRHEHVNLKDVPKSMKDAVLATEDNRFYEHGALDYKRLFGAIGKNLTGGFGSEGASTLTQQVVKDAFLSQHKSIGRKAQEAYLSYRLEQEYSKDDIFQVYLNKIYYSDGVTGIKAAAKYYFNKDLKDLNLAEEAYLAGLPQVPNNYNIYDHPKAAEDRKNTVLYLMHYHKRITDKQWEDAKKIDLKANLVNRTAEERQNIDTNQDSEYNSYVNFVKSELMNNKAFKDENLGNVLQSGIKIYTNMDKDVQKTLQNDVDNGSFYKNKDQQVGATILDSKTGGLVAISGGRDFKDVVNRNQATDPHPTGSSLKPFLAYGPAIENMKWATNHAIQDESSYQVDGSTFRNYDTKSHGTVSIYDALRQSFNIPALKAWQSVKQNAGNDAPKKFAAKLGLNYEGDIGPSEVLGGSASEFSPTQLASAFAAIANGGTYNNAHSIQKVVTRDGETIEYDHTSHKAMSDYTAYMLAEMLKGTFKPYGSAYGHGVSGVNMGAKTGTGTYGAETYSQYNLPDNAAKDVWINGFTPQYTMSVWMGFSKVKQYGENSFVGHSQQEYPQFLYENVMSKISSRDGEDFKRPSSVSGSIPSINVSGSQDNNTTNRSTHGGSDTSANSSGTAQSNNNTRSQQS

## C[C@]1(C=CC#N)[C@H](C(=O)O)N2C(=O)C[C@H]2S1(=O)=O [Ro-481220]
Beta-lactamase
  pIC50: 6.39
[1]
  pIC50: 3.55

From ChEMBL document CHEMBL1129642, “Design, synthesis, and evaluation of 2 beta-alkenyl penam sulfone acids as inhibitors of beta-lactamases” (J Med Chem, 1996)
